{"source": "patent US20260144796A1", "about": "“Compounds and Methods for Improving Health” (Acurx Pharmaceuticals, Inc., priority 2022, published 2026)", "tested_on": "C. difficile clinical isolates", "assay": "Agar dilution MIC, C. difficile clinical isolates with reduced susceptibility to metronidazole, vancomycin or fidaxomicin", "conditions": "vancomycin, fidaxomicin", "data": [{"smiles": "O=c1[nH]c(NCc2ccc(Cl)c(Cl)c2)nc2ncn(CCN3CCOCC3)c12", "note": "[Ibezapolstat, 2-((3,4-dichlorobenzyl)amino)-7-(2-morpholinoethyl)-1,7-dihydro-6H-purin-6-one]", "values": [{"measurement": "MIC50 and MIC90, susceptible versus reduced susceptible isolates", "value": "did not differ"}]}]}
